Pooled drug test results. Numbers come from NIAID ChemDB, via PubChem.

All rows: tests in culture; organism: Mycobacterium tuberculosis

MIC bound: limit read from a one-dose screen. ECn: concentration that inhibits the pathogen or its effect by n%. A number after MIC or MFC names an inhibition level or a share of isolates. Percent inhibition refers to the dose given; in toxicity tests it is the harm to the cells. Neighbouring rows are from separate reports. Two numbers with a dash give a range or band. An empty or dashed field is not shown.

compound	dose	measure	method	strain or isolate	cells	value
CCc1nc(NCCOC)c2cc(C)sc2n1		EC50	resazurin	Erdman		17 µM
CC(=O)OC1C2=C(C(=O)C(=O)C(C(C)C)=C2O)[C@@]2(C)CCCC(C)(C)[C@@H]2[C@@H]1OC(C)=O		MIC100	MTT	MDR		12.5 µg/mL
O=Nc1c2c(N3CCN(c4ccccn4)CC3)[nH]c3ccc(Br)cc3c-2c2ccccc12		MIC	BACTEC / radiometric	H37Rv		12.8 µM
CO[C@H]1/C=C/O[C@@]2(C)Oc3c(C)c(O)c4c(c3C2=O)-c2nc(-c3ccccc3)[nH]c2C(=NC(=O)/C(C)=C\C=C\[C@H](C)[C@H](O)[C@@H](C)[C@@H](O)[C@@H](C)[C@H](OC(C)=O)[C@@H]1C)C4=O		MIC		H37Rv		0.002 µg/mL
CCOc1ccc(C(N)=S)cc1		MIC		H37Rv (INH-resistant)		128 µM
COc1ccc(OC(=O)C2=C(C(C)C)C(=O)C3=C(C2=O)[C@@]2(C)CCCC(C)(C)[C@@H]2[C@H](O)[C@H]3OC(C)=O)cc1		MIC100	MTT	MDR		0.39 µg/mL
CO[C@H]1/C=C/O[C@@]2(C)Oc3c(C)c(O)c4c(O)c(c5c(c4c3C2=O)NC2(CCN(C(C)C)CC2)N=5)=NC(=O)/C(C)=C\C=C\[C@H](C)[C@H](O)[C@@H](C)[C@@H](O)[C@@H](C)[C@H](OC(C)=O)[C@@H]1C		MIC		H37Rv		0.001 µg/mL
O=c1c2c([nH]c3c1ccc1[nH]c4c(c(=O)c13)CCCC4)CCCC2		MIC bound	BACTEC	H37Rv		>12.5 µg/mL
CNC(=S)N(Cc1cc2ccccc2nc1Cl)c1ccc(OC)cc1		MIC		H37Ra		400 µg/mL
NC(=S)c1ccc(Cl)cc1		MIC		H37Rv		512 µM
COc1nc2ccc(Br)cc2c2c1C(C)(OCC(O)Cn1ccnc1)c1ccccc1-2		MIC	BACTEC / radiometric	H37Rv		6.51 µM
O=c1oc2ccccc2c(O)c1C(c1ccc2c(c1)OCO2)N1CCOCC1	12.5 µg/mL	inhibition	BACTEC	H37Rv		32%
CCn1cc(C(=O)O)c(=O)c2cc(F)c(N3CCN(C)CC3)cc21		MIC		H37Rv		5 µg/mL
CC(=O)O[C@H]1C2=C(C(=O)C(C(=O)Oc3ccc(Cl)cc3)=C(C(C)C)C2=O)[C@@]2(C)CCCC(C)(C)[C@@H]2C1C(=O)Oc1ccc(Cl)cc1		MIC100	MTT	MDR		>25 µg/mL
CN(C)C(=S)SCCOc1ccc(Cl)cc1Cl		MIC bound	BACTEC	H37Rv		≤128 µg/mL
CC(=O)Nc1ccc(C(N)=S)cc1		MIC		H37Rv (INH-resistant)		512 µM
O=C(N=Nc1c(O)[nH]c2ccc(Cl)cc12)c1ccc(-n2cc(-c3ccccc3)nn2)cc1O		MIC	resazurin	H37Rv		3.12 µg/mL
OC[C@H]1O[C@@H](n2ccc3c(-c4ccco4)nc(F)nc32)C(O)C1O		MIC	MTT	My 331/88		>250 µM
Cn1cc(NC(=O)Nc2cc(C(=O)Nc3cc(C(=O)Nc4ccc(P(=O)(O)O)c5cc(P(=O)(O)O)ccc45)n(C)c3)n(C)c2)cc1C(=O)Nc1cc(C(=O)Nc2ccc(P(=O)(O)O)c3cc(P(=O)(O)O)ccc23)n(C)c1	12.5 µg/mL	inhibition	BACTEC	H37Rv		10%
NC(=S)c1ccccn1		MIC		H37Rv (INH-resistant)		256 µM
CO[C@H]1/C=C/O[C@@]2(C)Oc3c(C)c(O)c4c(O)c(c(/C=N/N5CCN(C)CC5)c(O)c4c3C2=O)NC(=O)/C(C)=C\C=C\[C@H](C)[C@H](O)[C@@H](C)[C@@H](O)[C@@H](C)[C@H](OC(C)=O)[C@@H]1C		MIC	resazurin	H37Rv		0.39 µg/mL
CCOC(=O)C1=C(C)N(c2ccc(F)c(Cl)c2)C(=O)NC1c1ccccc1		MIC	resazurin	H37Rv		>6.25 µg/mL
Cc1ccc(NCc2cc3ccccc3nc2Cl)cc1		MIC		H37Ra		>400 µg/mL
CC1(C)COC(c2ccccc2Br)=N1	12.5 µg/mL	inhibition	BACTEC	H37Rv		16%
CCc1nc(NCCCC(F)(F)F)c2cc(C)sc2n1		EC50	resazurin	Erdman		0.11 µM
CC1(C)S[C@@H]2[C@H](NC(=O)C(C(=O)O)c3ccccc3)C(=O)N2[C@H]1C(=O)O		MIC90		24 strains (drug-susceptible)		>256 µg/mL
NC(=S)c1cccnc1		MIC		H37Rv (drug-susceptible)		512–1024 µM
CC(=O)c1c(O)c(C)c(O)c2c1OC1=CC(=O)C(C(C)=O)C(=O)[C@@]12C	128 µg/mL	inhibition	BACTEC	H37Rv		100%
CCc1nc2ccc(Cl)cn2c1C(=O)NCc1ccc(N2CCC(c3ccc(OC(F)(F)F)cc3)CC2)cc1		EC50	resazurin	Erdman		0.001 µM
NNC(=O)c1ccncc1		MIC	resazurin / absorbance	H37Rv		0.04 µg/mL
O=C(CN1CCCCC1)NC(=O)N(/N=C\c1ccco1)c1ccccc1		MIC bound	BACTEC	H37Rv		>12.5 µg/mL
CO[C@H]1/C=C/O[C@@]2(C)Oc3c(C)c(O)c4c(c3C2=O)-c2nc(CC(C)C)[nH]c2C(=NC(=O)/C(C)=C\C=C\[C@H](C)[C@H](O)[C@@H](C)[C@@H](O)[C@@H](C)[C@H](OC(C)=O)[C@@H]1C)C4=O		MIC		H37Rv		0.002 µg/mL
CNc1ccc(C(N)=S)cc1		MIC		H37Rv		64 µM
Cc1noc(NS(=O)(=O)c2ccc(N=Nc3ccc(N)nc3N)cc2)c1C		MIC bound	BACTEC	H37Rv		>12.5 µg/mL
Cc1nc(-c2ccccc2)c2ccn([C@@H]3O[C@H](CO)C(O)C3O)c2n1		MIC	MTT	My 331/88		>250 µM
CCOC(=O)C1=C(C)N(c2ccc(F)c(Cl)c2)C(=O)NC1c1ccccc1[N+](=O)[O-]		MIC	resazurin	H37Rv		>6.25 µg/mL
CC1(C)N=C(N)N=C(N)N1c1ccc(CCCC(=O)Nc2ccc(S(=O)(=O)F)cc2)c(Cl)c1.CCS(=O)(=O)O		MIC bound	BACTEC	H37Rv		≤12.5 µg/mL
Cc1nc(Cl)nc2c1ccn2[C@@H]1O[C@H](CO)C(O)C1O		MIC	MTT	My 331/88		>250 µM
CS(=O)(=O)NC1=NCCN1[N+](=O)[O-]	12.5 µg/mL	inhibition	BACTEC	H37Rv		91%
CCC(=O)O[C@@H]1C(OC(C)=O)C2=C(C(=O)C(=O)C(C(C)C)=C2O)[C@@]2(C)CCCC(C)(C)[C@H]12		MIC100	MTT	MDR		6.25 µg/mL
O=Nc1c2c(-n3ccnc3)[nH]c3ccc(Br)cc3c-2c2ccccc12		MIC	BACTEC / radiometric	H37Rv		<0.99 µM
CSC(=S)N/N=C(/C)c1ccco1		MIC		EMB-R		1.6 µg/mL
CCOC(=O)C(=O)N=Nc1c(S)n(CC)c2ccccc12		MIC		CNCTC TBC1/47		>1000 µM
CCc1nc(NC(C(=O)O)C(C)C)c2cc(C)sc2n1		EC50	resazurin	Erdman		2.7 µM
CC1COc2c(N3CCN(C)CC3)c(F)cc3c(=O)c(C(=O)O)cn1c23		MIC		H37Rv		<1 µg/mL
CCCCN(CCCC)C(=S)S[As](SC(=S)N(CCCC)CCCC)SC(=S)N(CCCC)CCCC		MIC	BACTEC	H37Rv		128 µg/mL
CCC1CCC2CN(/N=C/c3c4c(O)c5c(O)c(C)c6c(c5c3O)C(=O)[C@@](C)(O/C=C/[C@H](OC)[C@@H](C)[C@@H](OC(C)=O)[C@H](C)[C@H](O)[C@H](C)[C@@H](O)[C@@H](C)/C=C/C=C(/C)C(=O)N4)O6)CCN2C1		MIC		H37Rv		0.03 µg/mL
COc1cccc(/C=C2/N=C(c3ccccc3)OC2=O)c1OC(C)=O	12.5 µg/mL	inhibition	BACTEC	H37Rv		12%
CCCC(=O)O[C@@H]1C(OC(C)=O)C2=C(C(=O)C(=O)C(C(C)C)=C2O)[C@@]2(C)CCCC(C)(C)[C@H]12		MIC100	MTT	MDR		12.5 µg/mL
O=[N+]([O-])c1ccc(N=NNc2ccc([N+](=O)[O-])cc2Br)c(Br)c1		EC50	luminescence	H37Ra-lux		0.88 µM
OC[C@H]1O[C@@H](n2ccc3c(-c4cccs4)nc(Cl)nc32)C(O)C1O		MIC	MTT	My 331/88		125 µM
CC(C)C1=C(O)C2=C(C(=O)C1=O)[C@@]1(C)CCCC(C)(C)C1C[C@H]2O		MIC100	MTT	MDR		12.5 µg/mL
NNC(=O)c1cccnc1		MIC		H37Rv (drug-susceptible)		512 µM
NNC(=O)c1ccncc1		MIC	resazurin	H37Rv		0.06 µg/mL
CN(C)c1cc(C(N)=S)ccn1		MIC		H37Rv (drug-susceptible)		512 µM
CCn1c(S)c(N=NC(N)=O)c2ccccc21		MIC		CNCTC TBC1/47		125 µM
Cc1nc(-c2ccco2)c2ccn([C@@H]3O[C@H](CO)C(O)C3O)c2n1		MIC	MTT	My 331/88		>250 µM
Clc1ccc(NCc2cc3ccccc3nc2Cl)cc1		MIC		H37Ra		>400 µg/mL
NC(=S)N=Nc1c(S)n(-c2ccccc2)c2ccccc12		MIC		CNCTC TBC1/47		16 µM
CC(=O)OC1C(OC(C)=O)C2C(C)CC3OC(=O)C(C)C3CC2(C)C1OC(C)=O		MIC bound	BACTEC	H37Rv		>12.5 µg/mL
C=C[C@](C)(Cl)[C@@H](Br)/C=C/[C@](C)(Cl)CBr		MIC		ATCC 35837 (ethambutol-resistant)		3.13 µg/mL
Cn1cc(NC(=O)Nc2cc(C(=O)Nc3cc(C(=O)Nc4ccc5cc(S(=O)(=O)O)cc(S(=O)(=O)O)c5c4)n(C)c3)n(C)c2)cc1C(=O)Nc1cc(C(=O)Nc2ccc3cc(S(=O)(=O)O)cc(S(=O)(=O)O)c3c2)n(C)c1	12.5 µg/mL	inhibition	BACTEC	H37Rv		8%
CO/N=C(\C(=O)N[C@@H]1C(=O)N2C(C(=O)O)=C(CSc3nc(=O)c(=O)[nH]n3C)CS[C@H]12)c1csc(N)n1		MIC90		24 strains (drug-susceptible)		256 µg/mL
ClC1=CC(=N/Br)/C=CC/1=N\Br	12.5 µg/mL	inhibition	BACTEC	H37Rv		17%
CC(=NNC(=O)c1ccc(-n2cc(-c3ccccc3)nn2)cc1O)c1ccccc1F		MIC	resazurin	H37Rv		6.25 µg/mL
CCOC(=O)C1=C(C)N(c2ccc(F)c(Cl)c2)C(=O)NC1c1ccccc1Cl		MIC	resazurin	H37Rv		>6.25 µg/mL
OC[C@H]1O[C@@H](n2ccc3c(-c4cccc5c4oc4ccccc45)nc(Cl)nc32)C(O)C1O		MIC	MTT	My 331/88		>250 µM
O=C(NN=Cc1ccccc1O)c1ccc(-n2cc(-c3ccccc3)nn2)cc1O		MIC	resazurin	H37Rv		12.5 µg/mL
CO[C@H]1/C=C/O[C@@]2(C)Oc3c(C)c(O)c4c(O)c(c(/C=N/N5CCN(C/C=C/c6ccccc6)CC5)c(O)c4c3C2=O)NC(=O)/C(C)=C\C=C\[C@H](C)[C@H](O)[C@@H](C)[C@@H](O)[C@@H](C)[C@H](OC(C)=O)[C@@H]1C		MIC		Kurono		0.2 µg/mL
Cc1ccc(N(Cc2cc3ccccc3nc2Cl)C(N)=S)cc1		MIC		H37Ra		200 µg/mL
CNC(=O)c1ccc(NC(=O)Nc2ccc(C3=NCCN3)cc2)cc1NC(=O)Nc1cccc(C2=NCCN2)c1		MIC	BACTEC	H37Rv	VERO	6.25 µg/mL
NC(=S)N(Cc1cc2ccccc2nc1Cl)c1ccc(F)c(Cl)c1		MIC		H37Ra		50 µg/mL
CCC(CO)C(=O)c1ccc(OCc2ccccc2)cc1O		EC50	fluorescence	H37Rv		0.38 µM
O=c1ccc2cc(O[C@@H]3O[C@H](CO)[C@@H](O)[C@H](O)[C@H]3O)c(O)cc2o1		MIC	BACTEC	H37Rv		≥128 µg/mL
O=C(N=Nc1c(O)n(C(c2ccc(Cl)cc2)N2C(=O)C(=O)c3ccccc32)c2ccc(Cl)cc12)c1ccc(-n2cc(-c3ccccc3)nn2)cc1O		MIC	resazurin	H37Rv		0.39 µg/mL
CCOC(=O)c1[nH]c2nc(N)ncc2c(=O)c1C		MIC bound	BACTEC	H37Rv		>12.5 µg/mL
CN1C(=S)C(=O)c2ccccc21		MIC		CNCTC TBC1/47		16 µM
CCc1nc(NCCCc2ccccc2)c2cc(C)sc2n1		EC50	resazurin	Erdman		0.042 µM
CC1CCN(C(=S)S)CC1.CC1CCNCC1	12.5 µg/mL	inhibition	BACTEC	H37Rv		99%
CC1=C(C(=O)Nc2ccc(C)cc2)C(c2ccc(O)cc2)NC(=O)N1c1ccc(F)c(Cl)c1		MIC	resazurin	H37Rv		>6.25 µg/mL

Repeating the first 9 entries:

compound	dose	measure	method	strain or isolate	cells	value
CCc1nc(NCCOC)c2cc(C)sc2n1		EC50	resazurin	Erdman		17 µM
CC(=O)OC1C2=C(C(=O)C(=O)C(C(C)C)=C2O)[C@@]2(C)CCCC(C)(C)[C@@H]2[C@@H]1OC(C)=O		MIC100	MTT	MDR		12.5 µg/mL
O=Nc1c2c(N3CCN(c4ccccn4)CC3)[nH]c3ccc(Br)cc3c-2c2ccccc12		MIC	BACTEC / radiometric	H37Rv		12.8 µM
CO[C@H]1/C=C/O[C@@]2(C)Oc3c(C)c(O)c4c(c3C2=O)-c2nc(-c3ccccc3)[nH]c2C(=NC(=O)/C(C)=C\C=C\[C@H](C)[C@H](O)[C@@H](C)[C@@H](O)[C@@H](C)[C@H](OC(C)=O)[C@@H]1C)C4=O		MIC		H37Rv		0.002 µg/mL
CCOc1ccc(C(N)=S)cc1		MIC		H37Rv (INH-resistant)		128 µM
COc1ccc(OC(=O)C2=C(C(C)C)C(=O)C3=C(C2=O)[C@@]2(C)CCCC(C)(C)[C@@H]2[C@H](O)[C@H]3OC(C)=O)cc1		MIC100	MTT	MDR		0.39 µg/mL
CO[C@H]1/C=C/O[C@@]2(C)Oc3c(C)c(O)c4c(O)c(c5c(c4c3C2=O)NC2(CCN(C(C)C)CC2)N=5)=NC(=O)/C(C)=C\C=C\[C@H](C)[C@H](O)[C@@H](C)[C@@H](O)[C@@H](C)[C@H](OC(C)=O)[C@@H]1C		MIC		H37Rv		0.001 µg/mL
O=c1c2c([nH]c3c1ccc1[nH]c4c(c(=O)c13)CCCC4)CCCC2		MIC bound	BACTEC	H37Rv		>12.5 µg/mL
CNC(=S)N(Cc1cc2ccccc2nc1Cl)c1ccc(OC)cc1		MIC		H37Ra		400 µg/mL